# Counter-ions that a name gives are not always drawn. Like-named read-outs stand apart in the source and are kept apart here.
# How the values were obtained:
# [1] = system: influenza virus A/hanfang/359/95 (H3N2); format: cell-based
# [2] = system: influenza virus A/Fort Monmouth/1/1947 (H1N1); format: cell-based
SMILES,"H3N2, A/hanfang/359/95 SI [1]",other results
"O=C(OCCCC[C@@H]1[C@H]2CCCN3CCC[C@@H](CN1S(=O)(=O)c1cccc(C(F)(F)F)c1)[C@@H]23)C12CC3CC(CC(C3)C1)C2 [Compound 9d, 12N-m-Trifluoromethlybenzenesulfonyl matrinic butyl adamantine-1’-carboxylate hydrochloride]",9.2,"H1N1, A/Fort Monmouth/1/1947 SI [2]: 2.5"
"O=C(OCCCC[C@@H]1[C@H]2CCCN3CCC[C@@H](CN1S(=O)(=O)c1cccc(C(F)(F)F)c1)[C@@H]23)C12CC3CC(CC(Br)(C3)C1)C2 [Compound 9f, 12N-m-Trifluoromethlybenzenesulfonylmatrinicbutyl-3’-bromoadamantane-1’-carboxylate hydrochloride]",,"H3N2, A/hanfang/359/95 SI ([1]; selectivity index = TC50/IC50): 10.6; H1N1, A/Fort Monmouth/1/1947 SI ([2]; selectivity index = TC50/IC50): 3.2"
"O=C(OCCCC[C@@H]1[C@H]2CCCN3CCC[C@@H](CN1S(=O)(=O)c1ccc(C(F)(F)F)cc1)[C@@H]23)C12CC3CC(CC(Br)(C3)C1)C2 [Compound 9c, 12N-p-Trifluoromethlybenzenesulfonylmatrinicbutyl-3’-bromoadamantane-1’-carboxylate hydrochloride]",9.0,"H1N1, A/Fort Monmouth/1/1947 SI [2]: 2.7"
"O=C(CC1CC2CCC1C2)OCCCC[C@@H]1[C@H]2CCCN3CCC[C@@H](CN1S(=O)(=O)c1cccc(C(F)(F)F)c1)[C@@H]23 (stereo partly shown) [Compound 9j, 12N-m-Trifluoromethlybenzenesulfonyl matrinic butyl-2’-norbornane acetate hydrochloride]",,"H3N2, A/hanfang/359/95 SI ([1]; selectivity index = TC50/IC50): 10.8; H1N1, A/Fort Monmouth/1/1947 SI ([2]; selectivity index = TC50/IC50): 4.9"
"O=C(CC1CC2CCC1C2)OCCCC[C@@H]1[C@H]2CCCN3CCC[C@@H](CN1S(=O)(=O)c1ccc(C(F)(F)F)cc1)[C@@H]23 (stereo partly shown) [Compound 9i, 12N-p-Trifluoromethlybenzenesulfonyl matrinic butyl-2’-norbornane acetate hydrochloride]",5.0,
"CC(C)(C)C(=O)OCCCC[C@@H]1[C@H]2CCCN3CCC[C@@H](CN1S(=O)(=O)c1cccc(C(F)(F)F)c1)[C@@H]23 [Compound 9l, 12N-m-Trifluoromethlybenzenesulfonyl matrinicbutylpivalate hydrochloride]",2.9,
"O=C(CC12CC3CC(CC(C3)C1)C2)OCCCC[C@@H]1[C@H]2CCCN3CCC[C@@H](CN1S(=O)(=O)c1cccc(C(F)(F)F)c1)[C@@H]23 [Compound 9e, 12N-m-Trifluoromethlybenzenesulfonyl matrinic butyl-1’-adamantaneacetatehydrochloride]",5.7,
"O=C(CC12CC3CC(CC(C3)C1)C2)OCCCC[C@@H]1[C@H]2CCCN3CCC[C@@H](CN1S(=O)(=O)c1ccc(C(F)(F)F)cc1)[C@@H]23 [Compound 9b, 12N-p-Trifluoromethlybenzenesulfonyl matrinic butyl-1’-adamantaneacetatehydrochloride]",2.2,
"O=C(OCCCC[C@@H]1[C@H]2CCCN3CCC[C@@H](CN1S(=O)(=O)c1ccc(C(F)(F)F)cc1)[C@@H]23)C12CC3CC(CC(C3)C1)C2 [Compound 9a, 12N-p-Trifluoromethlybenzenesulfonyl matrinic butyl adamantine-1’-carboxylate hydrochloride]",1.2,
CCCC[C@@H]1[C@H]2CCCN3CCC[C@@H](CN1S(=O)(=O)c1ccc(C(F)(F)F)cc1)[C@@H]23 [Compound 7a],3.8,
CCCC[C@@H]1[C@H]2CCCN3CCC[C@@H](CN1S(=O)(=O)c1ccccc1C(F)(F)F)[C@@H]23 [Compound 7c],1.7,
CCCC[C@@H]1[C@H]2CCCN3CCC[C@@H](CN1S(=O)(=O)c1cccc(C(F)(F)F)c1)[C@@H]23 [Compound 7b],3.0,
